Patent US20030099931A1

Biological target: Trinidad donkey (TrD) VEE virus (Venezuelan equine encephalitis virus, Trinidad donkey) (UniProt P05674)
Experiment: cell-based or functional assay

irrelevant isotype-matched MAbs (IgG2a-2b)
Endpoint Neutralization Concentration (PRNT), no C': > 10 µg/mL
Endpoint Neutralization Concentration (PRNT), with guinea pig complement (C'): > 10 µg/mL
